# Assay results from paper PMC11858715 (Molecules, 2025).
# Assay: Fluorescence spectra of peptide solutions in DMSO
# Assay type: physicochemical
# Conditions: 10^−5 mol L^−1 in 100% DMSO; 25 °C; excitation 280 nm; mean of three measurements
row,Substance,wavelength of fluorescence maximum λmax
1,GMMILG [S1],345 nm
2,"SHHYEP [S1A1, Ser-His-His-Tyr-Glu-Pro]",320 nm
3,"SHHYSP [S1A2, Ser-His-His-Tyr-Ser-Pro]",319 nm
4,YIYRNYPDF [S2],317 nm

# No end group written: not given here.
